Source: patent US6906198B1, “Antipicornaviral compounds, their preparation and use” (Agouron Pharmaceuticals, Inc., priority 1998, dated 2005)

Tests used:
HRV serotype 38 = test: Antirhinoviral H1-HeLa cell culture assay (XTT), HRV-38; type: cell-based, human rhinovirus; conditions: therapeutic index CC50/EC50, HRV (38)
Method: Antirhinoviral H1-HeLa Cell Culture Assay
In this cell protection assay, the ability of compounds to protect cells against HRV infection was measured by the XTT dye reduction method, which is described in Weislow et al., J. Natl. Cancer Inst. 1989, vol. 81, 577-586.
H1-HeLa cells were infected with HRV-14 at a multiplicity of infection (m.o.i.) of 0.13 (virus particles/cell) or mock-infected with medium only. Infected or mock-infected cells were resuspended at 8×10^5 cells per mL, and incubated with appropriate concentrations of the compounds to be tested. Two days later, XTT/PMS was added to test plates and the amount of formazan produced was quantified spectrophotometrically at 450/650 nm. The EC50 value was calculated as the concentration of compound that increased the percentage of formazan production in compound-treated, virus-infected cells to 50% of that produced by compound-free, mock-infected cells. The 50% cytotoxic dose (CC50) was calculated as the concentration of compound that decreased the percentage of formazan produced in compound-treated, mock-infected cells to 50% of that produced by compound-free, mock-infected cells. The therapeutic index (TI) was calculated by dividing the CC50 value by the EC50 value.
All strains of human rhinovirus (HRV) for use in this assay were purchased from American Type Culture Collection (ATCC), except for HRV serotype-14 (produced from the infectious cDNA clone constructed by Dr. Robert Rueckert, Institute for Molecular Virology, University of Wisconsin, Madison, Wis.). HRV stocks were propagated and viral assays were performed in H1-HeLa cells (ATCC). Cells were grown in minimal essential medium with 10% fetal bovine serum, available from Life Technologies (Gaithersburg, Md.).
The compounds were tested against control compounds WIN 51711, WIN 52084, and WIN 54954 (obtained from Sterling-Winthrop Pharmaceuticals), Pirodavir (obtained from Janssen Pharmaceuticals), and Pleconaril (prepared according to the method described in Diana et al., J. Med. Chem 1995, vol. 38, 1355). […]

[1] = tested on: Coxsackievirus type B3 (CVB-3); test: Anticoxsackieviral cell culture assay (XTT), CVB-3; type: cell-based; conditions: therapeutic index CC50/EC50, CVB-3
Method: Anticoxsackieviral Cell Culture Assay
Coxsackievirus types A-21 (CAV-21) and B3 (CVB-3) were purchased from American Type Culture Collection (ATCC, Rockville, Md.). Virus stocks were propagated and antiviral assays were performed in H1-HeLa cells (ATCC). Cells were grown in minimal essential medium with 10% fetal bovine serum (Life Technologies, Gaithersburg, Md.).
The ability of compounds to protect cells against either CAV-21 or CVB-3 infection was measured by the XTT dye reduction method. This method is described in Weislow et al., J. Natl. Cancer Inst. 1989, vol. 81, 577-586. H1-HeLa cells were infected with CAV-21 or CVB-3 at a multiplicity of infection (m.o.i.) of 0.025 or 0.075, respectively, or mock-infected with medium only. H1-HeLa cells were plated at 4×10^4 cells per well in a 96-well plate and incubated with appropriate concentrations of the test compound. One day (CVB-3) or two days (CAV-21) later, XTT/PMS was added to test plates and the amount of formazan produced was quantified spectrophotometrically at 450/650 nm. The EC50 was calculated as the concentration of compound that increased the formazan production in compound-treated, virus-infected cells to 50% of that produced by compound-free, uninfected cells. […] The therapeutic index (TI) was calculated by dividing the CC50 by the EC50. […]

## CCOC(=O)/C=C/[C@H](C[C@@H]1CCNC1=O)NC(=O)[C@@H](CC(=O)[C@@H](NC(=O)c1cc(C)on1)C(C)C)Cc1ccc(F)cc1 [(B-2), Ethyl-3-{(5′-Methylisoxazole-3′-carbonyl)-L-ValΨ(COCH2)-L-(4-F-Phe)-L-((S)-Pyrrol-Ala)}-E-Propenoate]
HRV serotype 38
  TI: >1428
[1]
  TI: >555
